Patent US9463216B2 (priority 2012, dated 2016)

The chains behind the UniProt entries cited, without tags or fusion partners. Residues count along the entry.
UniProt P13423, 30-764 limits assumed: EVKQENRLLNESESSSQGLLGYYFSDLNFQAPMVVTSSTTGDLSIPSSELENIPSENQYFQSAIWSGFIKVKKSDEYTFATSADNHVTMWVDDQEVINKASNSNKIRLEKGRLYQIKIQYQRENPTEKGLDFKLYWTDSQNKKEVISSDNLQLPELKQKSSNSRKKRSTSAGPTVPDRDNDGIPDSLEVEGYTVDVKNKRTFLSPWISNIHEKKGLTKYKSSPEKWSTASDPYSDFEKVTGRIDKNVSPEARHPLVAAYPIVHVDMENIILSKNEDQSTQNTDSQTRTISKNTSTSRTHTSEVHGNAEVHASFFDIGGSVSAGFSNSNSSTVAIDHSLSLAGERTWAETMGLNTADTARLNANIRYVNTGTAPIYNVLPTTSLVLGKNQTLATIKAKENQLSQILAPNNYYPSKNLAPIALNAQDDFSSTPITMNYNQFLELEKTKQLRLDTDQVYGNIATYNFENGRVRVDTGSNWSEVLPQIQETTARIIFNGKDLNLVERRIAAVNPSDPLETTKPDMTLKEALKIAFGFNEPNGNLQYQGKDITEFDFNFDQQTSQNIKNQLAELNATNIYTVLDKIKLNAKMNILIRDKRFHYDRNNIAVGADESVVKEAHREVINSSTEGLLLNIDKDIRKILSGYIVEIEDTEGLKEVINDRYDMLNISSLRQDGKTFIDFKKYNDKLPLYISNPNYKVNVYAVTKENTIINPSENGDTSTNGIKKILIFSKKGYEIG
UniProt Q51693, 27-528 limits assumed: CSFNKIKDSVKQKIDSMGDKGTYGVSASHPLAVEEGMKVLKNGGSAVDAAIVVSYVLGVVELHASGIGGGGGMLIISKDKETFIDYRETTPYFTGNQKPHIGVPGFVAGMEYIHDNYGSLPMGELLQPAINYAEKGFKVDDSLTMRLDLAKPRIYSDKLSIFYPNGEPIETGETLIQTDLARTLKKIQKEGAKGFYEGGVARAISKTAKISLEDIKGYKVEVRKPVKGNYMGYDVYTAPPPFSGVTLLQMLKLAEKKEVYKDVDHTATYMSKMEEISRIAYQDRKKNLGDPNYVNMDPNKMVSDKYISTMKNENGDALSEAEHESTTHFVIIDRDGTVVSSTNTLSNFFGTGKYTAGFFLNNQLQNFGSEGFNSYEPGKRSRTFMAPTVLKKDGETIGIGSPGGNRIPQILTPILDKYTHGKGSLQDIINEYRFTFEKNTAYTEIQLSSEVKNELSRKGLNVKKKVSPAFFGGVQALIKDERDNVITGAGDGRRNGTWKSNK

Key:
lethal toxin (PA + LF) = lethal toxin (PA + LF) (Bacillus anthracis, UniProt P13423); settings: for IC50: read-out: Half-maximal inhibitory values
CapD = CapD (Bacillus anthracis, UniProt Q51693)

Substance | inhibitory activity (LT-mediated cytotoxicity) after cleavage by Cap D (lethal toxin (PA + LF)) | IC50 (lethal toxin (PA + LF)) | digestion / cleavage by CapD (CapD)
γ-DLPGA [Compound 1] | not | 0.68 ± 0.07 µM | –
γ-DPGA [Compound 2] | abolishes inhibitory activity | 12 ± 1 µM | susceptible to enzymatic cleavage
